Assay results: PMC8678048 (Frontiers in Microbiology, 2021)

Protein sequences, listed by entry. Tags and fused reporters are not part of them. Lines headed by an entry give the natural chain unless they say otherwise; changes in a name come on top.
UniProt Q00946: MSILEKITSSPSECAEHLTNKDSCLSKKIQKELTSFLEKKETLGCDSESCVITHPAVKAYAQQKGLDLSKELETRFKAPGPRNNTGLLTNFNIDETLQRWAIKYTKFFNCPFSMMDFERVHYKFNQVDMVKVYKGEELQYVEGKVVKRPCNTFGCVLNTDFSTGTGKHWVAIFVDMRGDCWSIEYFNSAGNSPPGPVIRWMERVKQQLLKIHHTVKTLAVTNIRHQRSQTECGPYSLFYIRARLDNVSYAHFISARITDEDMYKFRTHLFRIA

Molecular target: ASFV pS273R protease (African swine fever virus, UniProt Q00946)
Assay: pS273R protease inhibition assay (Lineweaver–Burk, Dixon)
Format: biochemical
Details: read-out: Ki value; substrate Bz-Nle-Gly-Gly-Arg-AMC; fluorescence ex 360nm, em 460nm; method of Dixon; mean±SEM; three independent experiments

CC[C@H](C)[C@@H]1NC(=O)CNC(=O)[C@H](CO)NC(=O)[C@@H]2CSSC[C@@H](C(=O)N[C@@H](Cc3ccc(O)cc3)C(=O)O)NC(=O)[C@H](CCCCN)NC(=O)[C@@H]3CSSC[C@H](NC(=O)[C@H](CCC(N)=O)NC(=O)[C@H](Cc4ccc(O)cc4)NC(=O)[C@H](CCC(N)=O)NC(=O)[C@H](CC(N)=O)NC(=O)[C@H](Cc4ccccc4)NC(=O)[C@@H]4CCCN4C(=O)[C@@H](NC(=O)CNC(=O)[C@H](Cc4ccc(O)cc4)NC(=O)CN)CSSC[C@H](NC(=O)[C@H](Cc4ccc(O)cc4)NC(=O)CNC(=O)CNC(=O)[C@H](CCCCN)NC(=O)[C@H](Cc4ccc(O)cc4)NC(=O)CNC(=O)[C@H](CCCNC(=N)N)NC1=O)C(=O)N[C@@H](CCCCN)C(=O)NCC(=O)N[C@@H]([C@@H](C)O)C(=O)N[C@@H](Cc1ccccc1)C(=O)N[C@@H](CCCCN)C(=O)N[C@@H](CCC(N)=O)C(=O)N[C@@H]([C@@H](C)O)C(=O)N3)C(=O)N[C@@H](Cc1c[nH]cn1)C(=O)N[C@@H](CO)C(=O)N[C@@H](Cc1c[nH]cn1)C(=O)N2 [OPTX-1]
pKi: 6.09

pKi: −log10 of the molar value.
